PubChem BioAssay AID1259414 – Drosophila RNAi Screening Center – 2018
In all, the deposit lists about 24,000 reagents; shown is an unselected part of those with a known target gene and a result. Of all reagents, about 1,210 (5%) are marked active. 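Inactive calls also include excluded dsRNAs with several or no targets, genes unexpressed in JW18, and well A1, regardless of score.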 Unmarked entries are inactive. Names joined by + are all predicted targets of the reagent.

Test: 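Genome-wide screen for host control of endosymbiont load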 (primary screen)
Cell system: Drosophila JW18 cells infected with Wolbachia
Knock-down reagent: long dsRNA against Drosophila genes, 0.25 µg dsRNA per well of a 384-well plate
Duration: 5 days
Challenge: cells persistently infected with Wolbachia before knock-down; no added drug
Measured: 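Imaged fluorescence in situ signal for Wolbachia 23S rRNA per DAPI-counted host cell, given as a robust z-score within each plate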
Scale: Wolbachia per cell robust z: higher = more Wolbachia per host cell than the plate typical
Hit rule: 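Hit when robust z is 1.5 or more, or -1.5 or less, in at least two of three replicates; excludes dsRNAs with several or no targets, genes not expressed in JW18 and well A1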

no.	predicted target	dsRNA	Wolbachia per cell robust z, rep 1	Wolbachia per cell robust z, rep 2	Wolbachia per cell robust z, rep 3
1	tj	DRSC02011	1.14	1.13	1.3
2	tj	DRSC28417	-1.61	-3.47	-2.43
3	DptA	DRSC07404	-0.183	-0.17	0.644
4	DptA	DRSC40839	0.92	1.49	1.06
5	CG7402	DRSC10839	-0.702	-0.0728	0.772
6	PVRAP	DRSC10577	-0.848	-0.21	-0.369
7	CG17211	DRSC02587	-2.18	0.372	-0.318
8	CG31823	DRSC01887	0.165	0.916	-0.0115
9	Arpc2	DRSC02113	0.031	-1.91	-0.456
10	CG11679	DRSC19415	-3.21	0.356	0.396
11	CG12590	DRSC12216	0.443	0.523	0.71
12	CG6830	DRSC16124	0.944	1.35	-0.294
13	CG6830	DRSC27278	-0.754	0.335	0.666
14	Lcp65Aa	DRSC11209	0.643	-0.79	0.0854
15	Lcp65Aa	DRSC27546	1.37	0.478	0.572
16	PIG-U	DRSC02193	-0.969	-0.907	-0.615
17	PIG-U	DRSC28900	-1.38	0.583	-1.19
18	Ir47a	DRSC06215	0.614	0.32	0.772
19	CG6980	DRSC16162	-1.06	0.0489	-0.0763
20	CG6980	DRSC29355	0.764	-4.45	1.05
21	AdamTS-A	DRSC14992	0.121	-0.785	-0.22
22	AdamTS-A	DRSC15966	-5.91	0.672	0.935
23	AstCC	DRSC02404	-0.367	-1.65	-0.0191
24	CG1090	DRSC12150	-0.901	0.441	0.516
25	CG1090	DRSC21604	-0.00728	0.374	0.599
26	Rnp4F	DRSC18706	0.146	-0.519	-7.02
27	Rnp4F	DRSC26480	-0.654	1.88	-0.319
28	CG7945	DRSC10934	1.45	-1.18	-1.37
29	Gr43a	DRSC06658	1.33	0.524	1.05
30	CG30048	DRSC22205	1.02	0.713	1.03
31	CG32447	DRSC11732	-2.39	-1.66	0.441
32	CG32447	DRSC11805	0.57	-0.734	0.404
33	CG10559	DRSC14255	0.823	0.384	-5.89
34	CG10559	DRSC29876	-0.211	1.79	-9.29
35	CG17121	DRSC15176	-0.453	0.452	-0.273
36	nAChRalpha2	DRSC17009	0.452	0.69	-0.185
37	nAChRalpha2	DRSC24487	-0.968	0.566	1.03
38	CG34124	DRSC00849	-2.2	-1.43	-1.08
39	CG10104	DRSC05964	-2.96	1.5	-1.67
40	CG5892	DRSC15910	-5.27	0.629	-0.741
41	CG5892	DRSC24710	-0.334	-0.19	-2.33
42	mRpL30	DRSC18416	-3.3 (active)	-8.33	-0.0825
43	mRpL30	DRSC26623	-0.0907	0.306	0.493
44	msd1	DRSC08383	-0.741	-1.5	-0.605
45	CG33500	DRSC09115	1.51	2.11	0.632
46	CG6106	DRSC19971	-0.0657	-0.179	1.2
47	CG6106	DRSC29276	-1.12	0.289	-0.878
48	CG42585 + CG31835	DRSC28807	0.467	0.54	1.66
49	CG7741	DRSC07035	-1.11	0.162	-0.14
50	CG31673	DRSC03207	-3.3	-3.89	-2.87
51	CG16825	DRSC02526	-1.15	0.0339	-0.0917
52	YME1L	DRSC04378	-1.69	1.03	1.24
53	PolE2	DRSC09737	0.185	-0.873	-0.835
54	Sap30	DRSC19916	-1.13	-0.533	-0.0234
55	CG13674	DRSC10033	0.148	0.554	0.532
56	CG13674	DRSC27828	0.393	0.719	0.246
57	CG12439	DRSC02168	-4.07	1.08	1.68
58	CG12540	DRSC19471	-0.068	-1.05	0.628
59	CG30098	DRSC05605	-0.241	0.392	1.35
60	CG30098	DRSC25946	-0.758	-0.54	-0.0925
61	l(2)k10201	DRSC06439	0.252	0.37	0.477
62	l(2)k10201	DRSC07640	-0.627	-0.0235	-1.65
63	CG13999	DRSC02331	0.0351	-1.34	0.37
64	CG13999	DRSC29521	-1.04	0.0107	-2.15
65	CG14377	DRSC14837	0.758	-0.213	0.404
66	CG14377	DRSC26342	1.66	1.23	0.845
67	Cpr65Aw	DRSC08794	-1.66	-0.942	-0.616
68	TM9SF2	DRSC03197	1.54	0.828	1
